PubChem BioAssay AID588689 (Southern Research Specialized Biocontainment Screening …, 2011)
This is one part of the list. Measured potencies and affinities stand elsewhere. Activity calls are given as the source filed them. Rule as the data show it: inconclusive = inhibition above about 29% without an active follow-up result; inactive = below that.

Protein sequences, listed by entry. Tags and fused reporters are not part of them.
UniProt P29991, whole entry: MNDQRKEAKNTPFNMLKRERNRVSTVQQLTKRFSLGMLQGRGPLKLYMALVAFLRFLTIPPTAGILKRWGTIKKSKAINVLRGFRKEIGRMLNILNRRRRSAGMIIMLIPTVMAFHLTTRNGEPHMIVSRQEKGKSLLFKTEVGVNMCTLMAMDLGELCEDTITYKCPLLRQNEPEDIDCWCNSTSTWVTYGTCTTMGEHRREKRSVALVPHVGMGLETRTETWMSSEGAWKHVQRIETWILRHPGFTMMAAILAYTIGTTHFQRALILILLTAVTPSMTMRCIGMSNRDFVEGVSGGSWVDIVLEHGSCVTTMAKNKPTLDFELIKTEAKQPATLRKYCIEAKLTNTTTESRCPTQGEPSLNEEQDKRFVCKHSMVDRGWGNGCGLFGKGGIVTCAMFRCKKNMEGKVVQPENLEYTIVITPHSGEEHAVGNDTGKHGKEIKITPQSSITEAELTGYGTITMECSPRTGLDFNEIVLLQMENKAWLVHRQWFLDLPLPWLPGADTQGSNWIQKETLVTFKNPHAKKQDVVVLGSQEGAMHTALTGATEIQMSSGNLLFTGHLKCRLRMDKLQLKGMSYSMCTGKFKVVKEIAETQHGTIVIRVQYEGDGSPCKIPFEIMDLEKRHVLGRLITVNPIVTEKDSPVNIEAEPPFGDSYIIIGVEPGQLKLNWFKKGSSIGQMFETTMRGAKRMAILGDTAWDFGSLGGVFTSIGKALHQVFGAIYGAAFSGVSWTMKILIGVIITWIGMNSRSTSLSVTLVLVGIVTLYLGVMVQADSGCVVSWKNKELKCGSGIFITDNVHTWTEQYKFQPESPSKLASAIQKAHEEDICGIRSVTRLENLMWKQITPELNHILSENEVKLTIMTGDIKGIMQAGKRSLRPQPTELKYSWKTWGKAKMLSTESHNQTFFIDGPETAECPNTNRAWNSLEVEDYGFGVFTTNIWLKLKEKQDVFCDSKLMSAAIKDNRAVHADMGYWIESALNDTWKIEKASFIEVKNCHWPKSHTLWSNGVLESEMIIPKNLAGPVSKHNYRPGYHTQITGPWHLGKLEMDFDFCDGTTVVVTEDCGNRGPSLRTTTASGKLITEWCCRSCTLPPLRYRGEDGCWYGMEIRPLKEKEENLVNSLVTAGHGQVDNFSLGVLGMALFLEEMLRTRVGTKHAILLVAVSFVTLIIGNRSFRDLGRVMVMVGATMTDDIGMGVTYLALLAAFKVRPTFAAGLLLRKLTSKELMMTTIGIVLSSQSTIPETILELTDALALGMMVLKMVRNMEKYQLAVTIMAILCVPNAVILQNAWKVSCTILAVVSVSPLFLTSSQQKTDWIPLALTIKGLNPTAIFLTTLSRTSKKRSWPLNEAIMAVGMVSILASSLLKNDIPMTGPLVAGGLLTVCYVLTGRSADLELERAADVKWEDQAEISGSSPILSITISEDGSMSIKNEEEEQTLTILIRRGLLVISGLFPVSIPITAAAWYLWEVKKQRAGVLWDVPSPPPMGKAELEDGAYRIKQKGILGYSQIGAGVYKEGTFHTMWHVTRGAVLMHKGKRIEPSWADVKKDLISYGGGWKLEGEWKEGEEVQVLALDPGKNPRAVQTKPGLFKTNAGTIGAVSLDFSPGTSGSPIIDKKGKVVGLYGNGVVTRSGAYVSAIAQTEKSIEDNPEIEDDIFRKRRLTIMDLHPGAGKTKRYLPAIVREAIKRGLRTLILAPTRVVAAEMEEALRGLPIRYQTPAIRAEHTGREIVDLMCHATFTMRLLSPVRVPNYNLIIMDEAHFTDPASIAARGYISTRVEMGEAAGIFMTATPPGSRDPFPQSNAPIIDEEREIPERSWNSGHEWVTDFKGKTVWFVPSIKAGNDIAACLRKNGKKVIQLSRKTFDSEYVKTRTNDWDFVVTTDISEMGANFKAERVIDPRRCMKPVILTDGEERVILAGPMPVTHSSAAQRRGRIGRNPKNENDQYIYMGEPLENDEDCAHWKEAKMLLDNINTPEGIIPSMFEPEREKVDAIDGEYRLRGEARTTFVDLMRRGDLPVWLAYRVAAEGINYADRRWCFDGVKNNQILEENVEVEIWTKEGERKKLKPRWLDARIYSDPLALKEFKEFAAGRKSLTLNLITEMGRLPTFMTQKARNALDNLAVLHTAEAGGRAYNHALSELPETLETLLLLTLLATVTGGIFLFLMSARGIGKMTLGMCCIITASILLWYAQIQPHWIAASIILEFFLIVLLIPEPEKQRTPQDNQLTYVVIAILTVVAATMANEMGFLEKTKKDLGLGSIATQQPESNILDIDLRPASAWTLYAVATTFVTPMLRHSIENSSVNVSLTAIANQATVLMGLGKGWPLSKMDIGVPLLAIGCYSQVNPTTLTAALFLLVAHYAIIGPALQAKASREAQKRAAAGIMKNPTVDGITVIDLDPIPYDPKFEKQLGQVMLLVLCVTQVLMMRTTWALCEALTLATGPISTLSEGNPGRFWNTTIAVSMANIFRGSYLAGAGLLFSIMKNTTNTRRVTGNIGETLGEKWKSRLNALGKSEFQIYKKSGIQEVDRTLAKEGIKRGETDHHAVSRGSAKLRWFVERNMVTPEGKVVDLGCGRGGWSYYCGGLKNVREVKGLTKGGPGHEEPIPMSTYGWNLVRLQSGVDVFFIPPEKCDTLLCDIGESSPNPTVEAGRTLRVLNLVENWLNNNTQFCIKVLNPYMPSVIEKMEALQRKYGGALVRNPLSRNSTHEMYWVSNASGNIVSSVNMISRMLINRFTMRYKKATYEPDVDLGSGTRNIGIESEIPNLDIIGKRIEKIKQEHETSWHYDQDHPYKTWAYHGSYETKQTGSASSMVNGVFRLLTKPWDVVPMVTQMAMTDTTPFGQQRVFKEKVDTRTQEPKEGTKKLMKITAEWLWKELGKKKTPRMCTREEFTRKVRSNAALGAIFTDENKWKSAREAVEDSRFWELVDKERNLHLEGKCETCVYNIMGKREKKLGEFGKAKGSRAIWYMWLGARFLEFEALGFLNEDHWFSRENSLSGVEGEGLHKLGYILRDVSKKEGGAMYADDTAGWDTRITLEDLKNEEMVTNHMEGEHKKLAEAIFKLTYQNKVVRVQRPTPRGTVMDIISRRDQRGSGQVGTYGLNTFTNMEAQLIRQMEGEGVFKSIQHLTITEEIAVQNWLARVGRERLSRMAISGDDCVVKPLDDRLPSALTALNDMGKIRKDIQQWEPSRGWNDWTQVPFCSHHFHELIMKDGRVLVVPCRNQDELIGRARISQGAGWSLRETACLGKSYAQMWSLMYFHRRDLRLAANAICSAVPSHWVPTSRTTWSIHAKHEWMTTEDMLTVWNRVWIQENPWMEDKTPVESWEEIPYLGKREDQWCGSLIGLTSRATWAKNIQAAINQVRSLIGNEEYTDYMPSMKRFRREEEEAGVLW

target: Genome polyprotein (Dengue virus type 2 (strain 16681-PDK53)) (UniProt P29991); experiment: Dengue-2 NS5 methyltransferase inhibitors, primary screen, biochemical, confirmation dose response (AID 588689); settings: Dengue-2 NS5 methyltransferase capping enzyme assay, at 25 µM, stronger effect = higher value

Row | SMILES | inhibition
1 | CCOC(=O)N1CCC(Nc2cccc(C)c2)CC1 | inactive: 2.33%
2 | COc1cc(C(=O)NCC2(N(C)C)CCCCC2)ccc1OC(F)F | inactive: -9.45%
3 | CCOc1ccc(C)cc1CN(CCCl)CCCl | inactive: -4.62%
4 | O=C1CCN(Cc2ccccc2)CC1 | inactive: -5.07%
5 | O=P1(N(CCCl)CCCl)SCCCS1 | inactive: 4.03%
6 | CCCCOc1ccc(C(=O)NCC2(N3CCOCC3)CCCCC2)cc1 | inactive: -0.72%
7 | O=C(NCC1(N2CCCCC2)CCCCC1)c1ccc(F)cc1 | inactive: -2.2%
8 | COc1ccc(NC2CCN(CCc3ccccc3)CC2)c(OC)c1 | inactive: 5.67%
9 | CCOC(=O)N1CCC(Nc2ccc(F)cc2)CC1 | inactive: 1.96%
10 | O=C(NCC1(N2CCOCC2)CCCCC1)c1cc2ccccc2o1 | inactive: -1.61%
11 | O=C(NCC1(N2CCCCC2)CCCCC1)c1ccc(Cl)nc1 | inactive: -6.49%
12 | Cc1cc(C)cc(N(C(=O)c2ccccc2)C2CCN(C(=O)OC(C)(C)C)CC2)c1 | inactive: -3.92%
13 | CCOC(=O)N1CCC(Nc2ccc(OC)cc2)CC1 | inactive: -7.96%
14 | N#CC1(Nc2ccccc2)CCN(Cc2ccccc2)CC1 | inactive: -4.59%
15 | O=C(NCC1(N2CCCCC2)CCCCC1)c1ccc(Cl)s1 | inactive: -6.61%
16 | O=C(OC1CN2CCC1CC2)C1c2ccccc2Oc2ccccc21 (centres undefined) | inactive: 14.5%
17 | COc1ccc(Cl)cc1C(=O)NCC1(N2CCOCC2)CCCCC1 | inactive: 1.86%
18 | O=C(NCC1(N2CCCCC2)CCCCC1)c1ccc(=O)[nH]c1 | inactive: -4.51%
19 | O=C(NCC1(N2CCCCC2)CCCCC1)c1cccs1 | inactive: -12.3%
20 | COc1ccc(C(=O)NCC2(N3CCCCC3)CCCCC2)cc1 | inactive: -5.54%
21 | COc1ccc(C(=O)NCC2(N3CCCCC3)CCCCC2)c(OC)c1OC | inactive: -11.1%
22 | CC(C)(C)OC(=O)N1CCC(N(C(=O)c2ccccc2)c2ccc(F)cc2)CC1 | inactive: 2.04%
23 | CSc1ccccc1C(=O)NCC1(N2CCCCC2)CCCCC1 | inactive: 1.62%
24 | Cc1cccc(NC2(C#N)CCN(Cc3ccccc3)CC2)c1 | inactive: 4.78%
25 | CN1CCC(Nc2cccc(F)c2)CC1 | inactive: -10.5%

Row | SMILES | inhibition
26 | O=C(NCC1(N2CCCCC2)CCCCC1)c1cncc(Br)c1 | inactive: 2.18%
27 | Cc1ccc(C(=O)NCC2(N(C)C)CCCCC2)o1 | inactive: -4.39%
28 | CCCOc1ccc(C(=O)NCC2(N(C)C)CCCCC2)cc1OC | inactive: -8.6%
29 | COc1ccc(CN(CCCl)CCCl)cc1Cl | inactive: -4.37%
30 | CN(C)c1cccc(C(=O)NCC2(N3CCCCC3)CCCCC2)c1 | inactive: -9.15%
31 | CC(C)c1ccc(NC2CCN(C(=O)OC(C)(C)C)CC2)cc1 | inactive: -1.46%
32 | COc1cc(OC)c(C(=O)NCC2(N(C)C)CCCCC2)cc1OC | inactive: -0.65%
33 | O=C(NCC1(N2CCOCC2)CCCCC1)c1cc(F)c(F)cc1Cl | inactive: -7.51%
34 | O=C(NCC1(N2CCCCC2)CCCCC1)c1cccc(C(F)(F)F)c1 | inactive: -1.65%
35 | CN1CCN(CCOC(=O)C(O)(c2ccccc2)c2ccccc2)CC1 | inactive: 1.29%
36 | COc1ccc(NC2CCN(C(=O)OC(C)(C)C)CC2)cc1 | inactive: -10.3%
37 | CC(C)c1ccc(C(=O)NCC2(N3CCOCC3)CCCCC2)cc1 | inactive: 2.22%
38 | COc1cc(C(=O)NCC2(N3CCCCC3)CCCCC2)ccc1OC(F)F | inactive: 13.4%
39 | O=C(NCC1(N2CCOCC2)CCCCC1)c1cc(=O)[nH]c2ccccc12 | inactive: -0.68%
40 | O=C(NCC1(N2CCCCC2)CCCCC1)c1ccc(OC(F)F)cc1 | inactive: -14.7%
41 | CSc1ccc(C(=O)NCC2(N3CCOCC3)CCCCC2)cc1 | inactive: -10.1%
42 | O=C(NCC1(N2CCCCC2)CCCCC1)c1cccc([N+](=O)[O-])c1 | inactive: 2.37%
43 | CCN1CCC(Nc2ccc(Cl)cc2)CC1 | inactive: -3.88%
44 | N#CC1(Nc2ccccc2)CCN(CCc2ccccc2)CC1 | inactive: -3.43%
45 | c1ccc(CN2CCC(Nc3ccccc3)CC2)cc1 | inactive: -4.8%
46 | CCCN1CCC(Nc2cc(OC)cc(OC)c2)CC1 | inactive: 26%
47 | Cc1cc(N(CCCl)CCCl)ccc1C=O | inactive: 3.09%
48 | CN(C)C1(CNC(=O)c2cccc(C#N)c2)CCCCC1 | inactive: -2.61%
49 | CC(C)(C)OC(=O)N1CCC(N(C(=O)c2ccccc2)c2ccc(Cl)cc2)CC1 | inactive: -0.68%
50 | N#Cc1ccc(C(=O)NCC2(N3CCCCC3)CCCCC2)cc1 | inactive: -1.48%

Row | SMILES | inhibition
51 | N/C(=N\O)c1c(N)no[n+]1[O-] | inactive: -11.7%
52 | CCOC(=O)N1CCC(Nc2ccc(C)cc2)CC1 | inactive: -6.48%
53 | O=C(OC1CN2CCC1CC2)C1c2ccccc2C=Cc2ccccc21 (centres undefined) | inactive: 2.94%
54 | O=C(NCC1(N2CCOCC2)CCCCC1)c1cc(Br)ccc1Cl | inactive: -7.08%
55 | COc1cc(C(=O)NCC2(N3CCOCC3)CCCCC2)cc(OC)c1C | inactive: 1.1%
56 | COc1ccc(C(=O)NCC2(N3CCOCC3)CCCCC2)cc1OC | inactive: -7.12%
57 | CCC(CO)(C(=O)OC1CN2CCC1CC2)c1ccccc1 (centres undefined) | inactive: 0%
58 | COc1cc(OC)cc(C(=O)NCC2(N3CCOCC3)CCCCC2)c1 | inactive: -3.9%
59 | COc1cccc(C(=O)N(c2cc(C)cc(C)c2)C2CCN(C(=O)OC(C)(C)C)CC2)c1 | inactive: -4.57%
60 | CCOc1ncccc1C(=O)NCC1(N2CCOCC2)CCCCC1 | inactive: -6.94%
61 | CN1CCC(Nc2ccc(F)c(Cl)c2)CC1 | inactive: 0.79%
62 | CCCOc1ccc(C(=O)NCC2(N(C)C)CCCCC2)cc1 | inactive: -1.98%
63 | CC(C)(C)OC(=O)N1CCC(Nc2ccccc2)CC1 | inactive: -2.34%
64 | O=C(O)C1(Nc2ccccc2)CCN(Cc2ccccc2)CC1 | inactive: 0%
65 | Cc1ccccc1NC1(C#N)CCN(Cc2ccccc2)CC1 | inactive: 0.81%
66 | CCN1CCC(Nc2cccc(F)c2)CC1 | inactive: 0.74%
67 | O=C(NCC1(N2CCCCC2)CCCCC1)c1ccco1 | inactive: -1.1%
68 | CN(C)c1ccc(C(=O)NCC2(N3CCCCC3)CCCCC2)cc1 | inactive: 0.76%
69 | Cn1c(=O)[nH]cc(N(CCCl)CCCl)c1=O | inactive: 3.11%
70 | COc1cc(OC)cc(C(=O)NCC2(N3CCCCC3)CCCCC2)c1 | inactive: -5.84%
71 | CC(=O)N(c1ccccc1)C1CCNCC1 | inactive: -5.05%
72 | Cc1ccc(NC2(C#N)CCN(Cc3ccccc3)CC2)cc1 | inactive: 9.55%
73 | Cc1ccc(C(=O)NCC2(N3CCCCC3)CCCCC2)o1 | inactive: -6.48%
74 | Fc1ccccc1NC1CCN(Cc2ccccc2)CC1 | inactive: -4.83%
